Anti-infective test results gathered from many reports (values: NIAID ChemDB through PubChem).

Shared fields: tests in culture; species: Mycobacterium tuberculosis

Two numbers with a dash give a range or band.

SMILES	strain or isolate	dose	changes	read-out	read by	value
CCCC(=O)O[C@@H]1C(OC(C)=O)C2=C(C(=O)C(=O)C(C(C)C)=C2O)[C@@]2(C)CCCC(C)(C)[C@H]12	MDR			MIC100	MTT	12.5 µg/mL
CO[C@H]1/C=C/O[C@@]2(C)Oc3c(C)c(O)c4c(O)c(c5c(c4c3C2=O)NC2(CCN(CC(C)C)CC2)N=5)=NC(=O)/C(C)=C\C=C\[C@H](C)[C@H](O)[C@@H](C)[C@@H](O)[C@@H](C)[C@H](OC(C)=O)[C@@H]1C	20 strains			MIC90		0.035–0.07 µg/mL
COc1ccc(-n2[nH]c(C)c(N=Nc3ccc(-c4n[nH]c(=S)n4C)cc3)c2=O)cc1	H37Rv			EC50		>6.25 µg/mL
CO[C@H]1/C=C/O[C@@]2(C)Oc3c(C)c(O)c4c(O)c(c(/C=N/N=C(\C)N5CCCCC5)c(O)c4c3C2=O)NC(=O)/C(C)=C\C=C\[C@H](C)[C@H](O)[C@@H](C)[C@@H](O)[C@@H](C)[C@H](OC(C)=O)[C@@H]1C	H37Rv			MIC		0.016 µg/mL
CCCCCCCCCCCCN1C(=O)C(=O)c2cccc(-c3ccccc3)c21	H37Ra			MIC		≤20 µg/mL
CC(C)CCC[C@H](C)CC(=O)O				MIC		>1000 µM
Cc1ncc(CO)c(CO)c1OCC(O)CN1CCN(c2ccc(F)cc2)CC1	H37Rv			MIC bound	resazurin	>6.25 µg/mL
CCNc1[nH]c(=O)c(CNCc2cccc(C(F)(F)F)c2)cc1C(C)=N	H37Rv			MIC	broth dilution	>100 µM
S=C(NC1CCCCC1)SC(=S)NC1CCCCC1	H37Rv	6.25 µg/mL		inhibition	resazurin	9%
O=C(Nc1ccc(C(F)(F)F)cc1)C1(c2cccs2)CCOCC1	CDC1551			MIC99	turbidity	235 µM
Cc1ccc(C(F)(F)F)cc1CNCc1cc(C(=N)C2CC2)c(Nc2ccccc2)[nH]c1=O	H37Rv			MBC	broth dilution	<0.5 µM
CC(=O)/C(N=Nc1ccc(C(=O)N/N=C/c2ccc([N+](=O)[O-])o2)cc1)=C(/O)c1ccccc1	H37Rv	12.5 µg/mL		inhibition		94%
CCCCCS(=O)(=O)Nc1ccc2n[nH]c(C(F)(F)F)c2c1	H37Rv			MIC	resazurin	12 µM
O=C(Cc1csc2nc(-c3ccccc3)cn12)N/N=C/C=C/c1ccc([N+](=O)[O-])o1	H37Rv			EC50		<12.5 µg/mL
CCc1c2c(nc3ccc(OCc4c(F)c(F)c(F)c(F)c4F)cc13)-c1cc3c(c(=O)n1C2)COC(=O)C3(O)CC	H37Rv			MIC	resazurin	5.46 µM
O=C1C(=O)N(CCC2CCN(Cc3ccccc3)CC2)c2ccc(C3CCCCC3)cc21	H37Ra			MIC		≤20 µg/mL
C[C@H]1NCc2cc(-c3ccc4c(=O)c(C(=O)O)cn(C5CC5)c4c3OC(F)F)ccc21	67 clinical isolates			MIC90		4 µg/mL
CCc1c2c(nc3ccc(OCc4cccc(OC)c4)cc13)-c1cc3c(c(=O)n1C2)COC(=O)C3(O)CC	XDR		Extensively drug-resistant	MIC	resazurin	12.2 µM
CC(C)C1=C(O)C2=C(C(=O)C1=O)[C@@]1(C)CCCC(C)(C)C1C=C2	H37Rv			MIC100	MTT	>25 µg/mL
CCC(C)N1CCN(c2cc(=O)c3nc4c(oc3c2)c2c(=O)c3c(O)c(C)c5c(c34)=C(O)[C@@](C)(O/C=C/[C@H](OC)[C@@H](C)[C@@H](OC(C)=O)[C@H](C)[C@H](O)[C@H](C)[C@@H](O)[C@@H](C)/C=C/C=C(/C)C(=O)N2)O5)CC1	H37Rv			MIC		0.017 µg/mL
Cc1cc2n[nH]c(Cl)c2cc1NS(=O)(=O)CCCCF	H37Rv			MIC	resazurin	>100 µM
COc1ccc(OC(=O)C2=C(C(C)C)C(=O)C3=C(C2=O)[C@@]2(C)CCCC(C)(C)[C@@H]2[C@H](O)[C@H]3OC(C)=O)cc1	MDR			MIC100	MTT	0.39 µg/mL
C[C@H]1[C@H](NC(=O)/C(=N\OC(C)(C)C(=O)O)c2csc(N)n2)C(=O)N1S(=O)(=O)O	H37Rv			MIC	BACTEC	≥12.5 µg/mL
CCc1c2c(nc3ccc(OCc4ccc(F)c(F)c4F)cc13)-c1cc3c(c(=O)n1C2)COC(=O)C3(O)CC	H37Rv			MIC	resazurin	23.29 µM
CCC(=O)OC1=C(C(C)C)C(=O)C2=C(C1=O)[C@@]1(C)CCCC(C)(C)[C@@H]1[C@H](OC(=O)CC)C2OC(C)=O	H37Rv			MIC100	MTT	25 µg/mL
O=C(Cc1csc2nc(-c3ccccc3)cn12)N/N=C/c1ccccc1O	H37Rv			EC50		>12.5 µg/mL
CN(C)[C@@H]1C(=O)C(C(=O)NCNC(CO)(CO)CO)=C(O)[C@@]2(O)C(=O)C3=C(O)c4c(O)cccc4[C@@](C)(O)[C@H]3C[C@@H]12.Cl	H37Rv			MIC bound	BACTEC	>12.5 µg/mL
Cc1ccc(-c2n[nH]c(=O)n2-n2c(C)ccc2C)cc1	1274			MIC		2.58 µg/mL
C=CCN(CC=C)/C(C)=N/N=C/c1c2c(O)c3c(O)c(C)c4c(c3c1O)C(=O)[C@@](C)(O/C=C/[C@H](OC)[C@@H](C)[C@@H](OC(C)=O)[C@H](C)[C@H](O)[C@H](C)[C@@H](O)[C@@H](C)/C=C/C=C(/C)C(=O)N2)O4	H37Rv			MIC		0.016 µg/mL
OC[C@@H](O)[C@@H](O)[C@H](O)c1nn(-c2ccccc2)c2nc3ccccc3nc12	H37Rv			MIC bound		>6.25 µg/mL
CC[C@@H](CO)NCCN[C@@H](CC)CO	H37Rv			MIC		1.25 µg/mL
O=NN(CC(=O)NNc1ccccc1)CC(=O)NNc1ccccc1	H37Rv			MIC bound	BACTEC	>12.5 µg/mL
CO[C@H]1/C=C/O[C@@]2(C)Oc3c(C)c(O)c4c(O)c(c(/C=N/N=C(\C)N5CCOCC5)c(O)c4c3C2=O)NC(=O)/C(C)=C\C=C\[C@H](C)[C@H](O)[C@@H](C)[C@@H](O)[C@@H](C)[C@H](OC(C)=O)[C@@H]1C	H37Rv			MIC		0.016 µg/mL
O=C(NC12CC3CC(CC(C3)C1)C2)C(=O)c1c[nH]c2ccc([N+](=O)[O-])cc12	H37Rv	6.25 µg/mL		inhibition	resazurin	47%
CCN(CCCCN1C(=O)C(=O)c2ccccc21)Cc1ccccc1	H37Rv			MIC		≤20 µg/mL
O=C1c2ccccc2C(=O)c2sc(Nc3cccc(Cl)c3)nc21	H37Rv			MIC	BACTEC	0.8 µg/mL
NC(=O)c1ccccc1NC(=O)C1(c2cccs2)CCOCC1	CDC1551			EC50	turbidity	200 µM
CCCCCCCCCCCCN(CCO)C[C@@H]1O[C@@H]2OC(C)(C)O[C@@H]2[C@H]2OC(C)(C)O[C@H]21	H37Rv			MIC		3.12 µg/mL
CCOc1ccc(NC(=O)C2(c3cccs3)CCOCC2)cc1	CDC1551			EC50	turbidity	81 µM
Cn1nc(C(N)=O)c(=O)[nH]c1=O	H37Rv			MIC	BACTEC	≥12.5 µg/mL
COc1cccc(/C=N/NC(=O)Cc2csc3nc(-c4ccccc4)cn23)c1	H37Rv			EC50		>12.5 µg/mL
CC(=O)N1C(C(=O)NN2CCOCC2)CSC1c1ccccc1	H37Rv	6.25 µg/mL		inhibition	resazurin	2%
CCc1c2c(nc3ccc(OCc4cc(OC)ccc4Br)cc13)-c1cc3c(c(=O)n1C2)COC(=O)C3(O)CC	H37Rv			MIC	resazurin	26.3 µM
CO[C@H]1/C=C/O[C@@]2(C)Oc3c(C)c(O)c4c(O)c(c5c(c4c3C2=O)NC2(CCN(CC(C)C)CC2)N=5)=NC(=O)/C(C)=C\C=C\[C@H](C)[C@H](O)[C@@H](C)[C@@H](O)[C@@H](C)[C@H](OC(C)=O)[C@@H]1C	N-2			MIC		2.5 µg/mL
O=C1C(=O)N(CCN2CCN(Cc3ccccc3)CC2)c2c1cccc2C1CCCC1	H37Rv			MIC		≤20 µg/mL
CCc1c2c(nc3ccc(OCc4ccc(I)cc4)cc13)-c1cc3c(c(=O)n1C2)COC(=O)C3(O)CC	H37Rv			MIC	resazurin	20.55 µM
CCC(=O)O[C@@H]1C(OC(C)=O)C2=C(C(=O)C(=O)C(C(C)C)=C2O)[C@@]2(C)CCCC(C)(C)[C@H]12	MDR			MIC100	MTT	6.25 µg/mL
CN[C@@H]1[C@H](O[C@H]2[C@H](O[C@H]3[C@H](O)[C@@H](O)[C@H](N=C(N)N)[C@@H](O)[C@@H]3N=C(N)N)O[C@@H](C)[C@]2(O)C=O)O[C@@H](CO)[C@H](O)[C@H]1O	WC 64/02			MIC		0.625 µg/mL
CCCCCCCCCCCCCCCCN(CCO)C[C@@H]1O[C@@H]2OC(C)(C)O[C@@H]2[C@H]2OC(C)(C)O[C@H]21	H37Rv			MIC		6.25 µg/mL
CC(CN1c2ccccc2Sc2ccccc21)N(C)CCO	H37Rv	12.5 µg/mL		inhibition	BACTEC	17%
CCOC(=O)/C(N=Nc1ccc(-c2n[nH]c(=S)n2C)cc1)=C(\C)O	H37Rv			EC50		>6.25 µg/mL
Cc1nnc(NS(=O)(=O)c2ccc(N=Nc3cc(N=Nc4ccccc4)c(N)nc3N)cc2)s1	H37Rv			MIC bound	BACTEC	>12.5 µg/mL
CO[C@H]1/C=C/O[C@@]2(C)Oc3c(C)c(O)c4c(=O)c(c5oc6cc(N7CCN(CC(C)C)CC7)cc(=O)c6nc5c4c3=C2O)NC(=O)/C(C)=C\C=C\[C@H](C)[C@H](O)[C@@H](C)[C@@H](O)[C@@H](C)[C@H](OC(C)=O)[C@@H]1C	Atencio			MIC		0.004 µg/mL
COc1ccc(-c2c(N)cnc(C(=O)O)c2C)c(OCc2ccccc2)c1OC	H37Rv	12.5 µg/mL		inhibition	BACTEC	0%
CO[C@H]1/C=C/O[C@@]2(C)Oc3c(C)c(O)c4c(=O)c(c5oc6cc(N7CCN(C(C)C)CC7)cc(=O)c6nc5c4c3=C2O)NC(=O)/C(C)=C\C=C\[C@H](C)[C@H](O)[C@@H](C)[C@@H](O)[C@@H](C)[C@H](OC(C)=O)[C@@H]1C	H37Rv			MIC		0.017 µg/mL
C=C[C@@]1(C)CC(=O)[C@]2(O)[C@@]3(C)[C@@H](O)CCC(C)(C)[C@@H]3[C@H](O)[C@@H](OC(C)=O)[C@@]2(C)O1	H37Rv			MIC	BACTEC	≥12.5 µg/mL
C[C@H](CCC(=O)O)[C@H]1CC[C@H]2[C@@H]3CC[C@@H]4C[C@H](O)CC[C@]4(C)[C@H]3C[C@H](O)[C@]12C				MIC		>1000 µM
CCOC(=O)C(=CNC(=S)c1ccncc1)C(=O)OCC	H37Rv	6.25 µg/mL		inhibition	resazurin	-141%
O=C(CSc1nnc(-c2cccc(NC(=S)NCCO)c2)o1)c1ccccc1	H37Rv	6.25 µg/mL		inhibition	resazurin	69%
Cl.NCCc1nc(-c2nc(C(=O)O)cs2)cs1	H37Rv			MIC	BACTEC	≥12.8 µg/mL
Cc1[nH]n(-c2ccc([N+](=O)[O-])cc2)c(=O)c1N=Nc1ccc(-c2n[nH]c(=S)n2C)cc1	H37Rv			EC50		>6.25 µg/mL
Cc1cc(S(=O)(=O)Nc2nc(N)nc3nc4ccccc4n23)c(S)cc1Cl	H37Rv	6.25 µg/mL		inhibition	resazurin	-14%
CC(C)=CCC[C@H](C)CCOCCCCCC(=O)O				MIC		>1000 µM
Cc1cc2c(cc1Cl)SC(NNC(=O)c1ccco1)=NS2(=O)=O	H37Rv			MIC bound	resazurin	>6.25 µg/mL
CCc1c2c(nc3ccc(OCc4ccccc4)cc13)-c1cc3c(c(=O)n1C2)COC(=O)C3(O)CC	H37Rv			MIC	resazurin	25.9 µM
Cn1cccc1/C=N/N1CC(=O)N(c2ccccc2)CC1=O	H37Rv	6.25 µg/mL		inhibition	BACTEC	33%
NNC(=O)c1ccncc1	05001 (H37RV)			MIC		0.04–0.05 µg/mL
O=C1NN(C(=O)c2ccccc2)C(c2ccccc2[N+](=O)[O-])c2c1c1ccccc1n2C(=O)c1ccccc1	H37Rv	6.25 µg/mL		inhibition	resazurin	26%
CCN(C)/C(C)=N/N=C/c1c2c(O)c3c(O)c(C)c4c(c3c1O)C(=O)[C@@](C)(O/C=C/[C@H](OC)[C@@H](C)[C@@H](OC(C)=O)[C@H](C)[C@H](O)[C@H](C)[C@@H](O)[C@@H](C)/C=C/C=C(/C)C(=O)N2)O4	H37Rv			MIC		0.016 µg/mL

Repeating the first 9 entries:

SMILES	strain or isolate	dose	changes	read-out	read by	value
CCCC(=O)O[C@@H]1C(OC(C)=O)C2=C(C(=O)C(=O)C(C(C)C)=C2O)[C@@]2(C)CCCC(C)(C)[C@H]12	MDR			MIC100	MTT	12.5 µg/mL
CO[C@H]1/C=C/O[C@@]2(C)Oc3c(C)c(O)c4c(O)c(c5c(c4c3C2=O)NC2(CCN(CC(C)C)CC2)N=5)=NC(=O)/C(C)=C\C=C\[C@H](C)[C@H](O)[C@@H](C)[C@@H](O)[C@@H](C)[C@H](OC(C)=O)[C@@H]1C	20 strains			MIC90		0.035–0.07 µg/mL
COc1ccc(-n2[nH]c(C)c(N=Nc3ccc(-c4n[nH]c(=S)n4C)cc3)c2=O)cc1	H37Rv			EC50		>6.25 µg/mL
CO[C@H]1/C=C/O[C@@]2(C)Oc3c(C)c(O)c4c(O)c(c(/C=N/N=C(\C)N5CCCCC5)c(O)c4c3C2=O)NC(=O)/C(C)=C\C=C\[C@H](C)[C@H](O)[C@@H](C)[C@@H](O)[C@@H](C)[C@H](OC(C)=O)[C@@H]1C	H37Rv			MIC		0.016 µg/mL
CCCCCCCCCCCCN1C(=O)C(=O)c2cccc(-c3ccccc3)c21	H37Ra			MIC		≤20 µg/mL
CC(C)CCC[C@H](C)CC(=O)O				MIC		>1000 µM
Cc1ncc(CO)c(CO)c1OCC(O)CN1CCN(c2ccc(F)cc2)CC1	H37Rv			MIC bound	resazurin	>6.25 µg/mL
CCNc1[nH]c(=O)c(CNCc2cccc(C(F)(F)F)c2)cc1C(C)=N	H37Rv			MIC	broth dilution	>100 µM
S=C(NC1CCCCC1)SC(=S)NC1CCCCC1	H37Rv	6.25 µg/mL		inhibition	resazurin	9%

Conditions beyond the fields shown may differ between rows. A number after MIC or MFC names an inhibition level or a share of isolates. ECn is the concentration giving n% inhibition of infection, replication or growth. MIC bound: limit read from a one-dose screen. Percent inhibition refers to the dose given; in toxicity tests it is the harm to the cells. An empty or dashed field is not shown.